Measured values from several laboratories, pooled; numbers as filed in NIAID ChemDB.

Common to all: tests in culture; species: HIV-1; read by: luciferase; measure: EC50

ECn is the concentration giving n% inhibition of infection, replication or growth. Conditions beyond the fields shown may differ between rows. Blank or dashed fields: not listed here.

SMILES | strain or isolate | mutations | cells | result
COc1cnc(-c2ccc(C(N)=O)cc2)c2[nH]cc(C(=O)C(=O)N3CCC(=C(C#N)c4ccccc4)CC3)c12 |  |  | HeLa | <1 µM
O=C(C(=O)N1CCN(C(=O)c2cccc(Br)c2S)CC1)c1c[nH]c2cccc(F)c12 |  |  | HeLa + HELA CD4+/CCR5 | <10 µM
COc1cnc(-n2ccnn2)c2[nH]cc(C(=O)C(=O)N3CCC(=C(c4ccccc4)c4nnc(C)o4)CC3)c12 |  |  | HeLa | <1 µM
Cc1cc(C(=O)N[C@@H](Cc2cc(F)cc(F)c2)C(=O)N(C)c2ccc3scnc3c2)cc(C(=O)N[C@@H](Cc2cc(F)cc(F)c2)C(=O)N(C)c2ccc3scnc3c2)c1 | NL4-3 |  | MT-2 | 0.01 µM
O=C(C(=O)N1CCN(C(=O)c2cnccn2)CC1)c1c[nH]c2cccc(F)c12 |  |  | HeLa + HELA CD4+/CCR5 | <10 µM
COc1ccc(N(C)C(=O)[C@H](Cc2ccccc2)NC(=O)Cn2c(=O)n(CC(=O)N[C@@H](Cc3ccccc3)C(=O)N(C)c3ccc(OC)cc3)c3cc(OC)ccc32)cc1 | NL4-3 |  | MT-2 | 0.09 µM
Cc1cc(S(N)(=O)=O)ccc1NC(=O)COc1ccc(Cl)cc1C(=O)c1cc(F)cc(C(F)(F)F)c1 | IIIB | RT-K103N V108I | HELA MAGI | 0.0036 µM
COc1cnc(-c2ccc(C(=O)O)cc2)c2[nH]cc(C(=O)C(=O)N3CCC(=C(C#N)c4ccccc4)CC3)c12 |  |  | HeLa | <1 µM
Cc1cc(C#N)cc(C)c1Oc1nc(Nc2ccc(C#N)cc2)nc(N)c1Br | MJ4 C |  | HEK293T | 1.2 nM
C=CCN(C(=O)[C@H](Cc1cc(F)cc(F)c1)NS(=O)(=O)c1ccccc1S(=O)(=O)N[C@@H](Cc1cc(F)cc(F)c1)C(=O)N(CC=C)c1ccc(OC)cc1)c1ccc(OC)cc1 | NL4-3 |  | MT-2 | 1.74 µM
COc1cnc(-n2ccnn2)c2[nH]cc(C(=O)C(=O)N3CCC(=C(c4ccccc4)c4cccc(CO)c4)CC3)c12 |  |  | HeLa | <1 µM
Cc1ccc(F)c2c(C(=O)C(=O)N3CCN(C(=O)c4ccccn4)C[C@H]3C)c[nH]c12 |  |  | HeLa + HELA CD4+/CCR5 | <10 µM
COc1ccc(N(C)C(=O)C(Cc2ccccc2)NS(=O)(=O)CS(=O)(=O)N[C@@H](Cc2ccccc2)C(=O)N(C)c2ccc(OC)cc2)cc1 | NL4-3 |  | MT-2 | 1.24 µM
COc1cccc2[nH]cc(C(=O)C(=O)N3CCN(C(=O)c4cccc(NC(=O)OC(C)(C)C)c4)C[C@H]3C)c12 |  |  | HeLa + HELA CD4+/CCR5 | <10 µM
COc1ccc(N(C)C(=O)[C@H](Cc2ccccc2)NC(=O)c2cc(C(=O)N[C@@H](Cc3ccccc3)C(=O)N(C)c3ccc(OC)cc3)on2)cc1 | NL4-3 |  | MT-2 | 0.71 µM
C[C@@H]1CN(C(=O)c2ccccc2)CCN1C(=O)C(=O)c1c[nH]c2cc(Cl)ccc12 |  |  | HeLa + HELA CD4+/CCR5 | <10 µM
COc1cnc(-n2ccc(C)n2)c2[nH]cc(C(=O)C(=O)N3CCC(=C(c4ccccc4)c4nccs4)CC3)c12 |  |  | HeLa | <1 µM
CN(C(=O)[C@H](Cc1cc(F)cc(F)c1)NC(=O)NS(=O)(=O)N[C@@H](Cc1cc(F)cc(F)c1)C(=O)N(C)c1ccc2c(cnn2C)c1)c1ccc2c(cnn2C)c1 | NL4-3 |  | MT-2 | 0.08 µM
C[C@]1(CO)O[C@@H](n2cnc3c(N)ncnc32)C[C@@H]1O |  | AZT-R (delta)Env | HOS | 0.064 µM
CCOc1cccc2[nH]cc(C(=O)C(=O)N3CCN(C(=O)c4ccccc4)CC3)c12 |  |  | HeLa + HELA CD4+/CCR5 | <10 µM
COc1ccc(N(C)C(=O)[C@H](Cc2ccccc2)NC(=O)c2ccccc2-c2ccccc2C(=O)N(C)[C@@H](Cc2ccccc2)C(=O)N(C)c2ccc(OC)cc2)cc1 | NL4-3 |  | MT-2 | 1.4 µM

For reference, 2 entries again:

SMILES,strain or isolate,mutations,cells,result
COc1ccc(N(C)C(=O)[C@H](Cc2ccccc2)NC(=O)c2ccccc2-c2ccccc2C(=O)N(C)[C@@H](Cc2ccccc2)C(=O)N(C)c2ccc(OC)cc2)cc1,NL4-3,,MT-2,1.4 µM
COc1ccc(N(C)C(=O)[C@H](Cc2ccccc2)NC(=O)c2cc(C(=O)N[C@@H](Cc3ccccc3)C(=O)N(C)c3ccc(OC)cc3)on2)cc1,NL4-3,,MT-2,0.71 µM